Anti-infective test results gathered from many reports (values: NIAID ChemDB through PubChem).

All rows: whole-cell or culture tests; organism: HIV-1; measure: EC50

ECn: concentration that inhibits the pathogen or its effect by n%. a–b is a range or a potency band. An empty or dashed field is not shown. Conditions beyond the fields shown may differ between rows.

compound | setting | cell line | mutations | strain or isolate | result
C#C[C@]1(COC(=O)C(CCCCCC)CCCCCCCC)O[C@@H](n2cnc3c(N)nc(F)nc32)C[C@@H]1O | pseudotyped | U373-CD4-CXCR4 | M184V | NL4-3 | 0.176 µM
CC(=O)SCCOP(=O)(OCCSC(C)=O)OC[C@@H]1C=C[C@H](n2cc(C)c(=O)[nH]c2=O)O1 | - | PBMC | - | - | 0.007 µM
O=c1[nH]cnc2c1ncn2[C@@H]1O[C@H](CO)[C@@H](F)[C@H]1O | - | MT-4 | - | - | >500 µM
O=C1Nc2ccc(Cl)cc2[C@@](C#CC2CC2)(C(F)(F)F)N1 | - | MT-2 | - | RF | <0.002 µM
CCN1C[C@H](C)N2C(=C(O)C3C(=O)N4Cc5cc(Cl)c(F)cc5OCCCCCN(C)C(=O)C(=N4)C32)C1=O | - | MT-4 | - | LAII(IIIB) | 11.89 µM
C=C1CN(S(=O)(=O)c2ccc(C)cc2)CCCN(Cc2ccccc2)CCCN(S(=O)(=O)c2ccc(C)cc2)C1 | - | MT-2 | Pyridinone-resistant (RT K103N Y181C) | A17 | 2 µM
[N-]=[N+]=N[C@H]1C[C@H](CO)S[C@@H]1n1cnc2c(N)ncnc21 | - | MT-4 | - | - | >100 µM
COc1ccc(-c2n[nH]c(=S)n2N)cc1 | - | MT-4 | - | IIIB | >100 µM
C#C[C@]1(COC(=O)CCCCCCCC#CC)O[C@@H](n2cnc3c(N)nc(F)nc32)C[C@@H]1O | pseudotyped | U373-CD4-CXCR4 | M184V | NL4-3 | 0.013 µM
COc1ccnc2[nH]cc(C(=O)C(=O)N3CCN(C(=O)c4ccccc4)C[C@H]3C)c12 | - | MT-2 | - | NL4-3 | 0.00294 µM
CCN1C[C@H](C)N2C(=C(O)C3C(=O)N4Cc5ccccc5OCCCCS(=O)(=O)N(C)C(=N4)C32)C1=O | - | MT-4 | - | LAII(IIIB) | 0.92 µM
Nn1c(-c2ccc(Cl)cc2)n[nH]c1=S | - | MT-4 | RT-Y181C | NNRTI-resistant N119 | >100 µM
Cc1cc(C#N)cc(C)c1Oc1nc(Nc2ccc(C#N)cc2)nc(N)c1Br | - | TZM-bl | N348I | - | 0.009 µM
O=c1ccn([C@@H]2O[C@H](CO)[C@@H](F)[C@H]2O)c(=O)[nH]1 | - | MT-4 | - | - | >20 µM
CCOC(NC(=S)Nc1ccccn1)C(=O)c1ccccc1Cl | - | MT-4 | - | IIIB | 67.05 µM
CC1=C(C(=O)Nc2ccc(Cl)c(C(=O)OC(C)C)c2)SCCO1 | - | CEM | RT-K101E | IIIB | 0.042 µM
[N-]=[N+]=N[C@H]1C[C@@H](CO)S[C@@H]1n1cnc2c(N)ncnc21 | - | MT-4 | - | - | >100 µM
CCCCCCNP(=O)(OC[C@H]1O[C@@H](n2cc(C)c(=O)[nH]c2=O)C[C@@H]1N=[N+]=[N-])Oc1ccccc1 | - | CEM + CEM/O | - | IIIB | >8 µM
Cc1cn([C@H]2S[C@@H](CO)C[C@@H]2N=[N+]=[N-])c(=O)[nH]c1=O | - | MT-4 | - | - | >100 µM
C#C[C@]1(COC(=O)CCCC)O[C@@H](n2cnc3c(N)nc(F)nc32)C[C@@H]1O | pseudotyped | U373-CD4-CXCR4 | M184V | NL4-3 | 0.019 µM
CC(C)N1C[C@H](C)N2C(=C(O)C3C(=O)N(Cc4ccc(F)cc4)N=C(N(C)S(C)(=O)=O)C32)C1=O | - | MT-4 | - | LAII(IIIB) | 0.99 µM
COc1ccc(-c2nnc(SSc3nnc(-c4ccc(OC)cc4)n3N)n2N)cc1 | - | MT-4 | RT-Y181C | NNRTI-resistant N119 | >100 µM
CC(C)O/N=C/c1cc(NC(=S)OC(C)C)ccc1Cl | - | CEM | RT-K101E | IIIB | 0.041 µM
Cc1ccc(-c2nnc3sc(C(N)CC(C)C)nn23)cc1 | - | MT-4 | RT-Y181C | NNRTI-resistant N119 | >100 µM
O=c1[nH]c(=O)n([C@H]2C=C(CO)[C@@H](CO)S2)cc1F | - | MT-4 | - | - | 2.73 µg/mL
c1ccc(CNCc2ccc(CN3CCCNCCNCCCNCC3)cc2)nc1 | - | - | - | RF | 0.001–0.01 µg/mL
CC(C)[C@@H]1O[C@](C#CC2CC2)(C(F)(F)F)c2cc(Cl)ccc2NC1=O | - | MT-2 | - | RF | <0.0207 µM
C#C[C@]1(COC(=O)C(C)(C)C)O[C@@H](n2cnc3c(N)nc(F)nc32)C[C@@H]1O | pseudotyped | U373-CD4-CXCR4 | M184V | NL4-3 | 0.15 µM
CCN1C[C@H](C)N2C(=C(O)C3C(=O)N4Cc5ccc(F)cc5OCCCCCS(=O)(=O)N(C)C(=N4)C32)C1=O | - | MT-4 | - | LAII(IIIB) | 1.67 µM
COC[C@@H](c1ccc(C(F)(F)F)cc1)N1CCN(C2(C)CCN(C(=O)c3c(C)ncnc3C)CC2)C[C@@H]1C | - | TZM-bl | M518V F519L | S | 0.0022 µM
O=C(Nc1ccccc1)c1cc(S(=O)(=O)Nc2n[nH]c(=O)n2-c2ccccc2)c(S)cc1Cl | - | CEM + CEM-SS | - | - | 28.8 µM
CC(C)OC(=O)c1cc(NC(=S)OC(C)C)ccc1Cl | - | CEM | RT-K101E | IIIB | 0.025 µM
C[C@@H]1O[C@](/C=C/C2CC2)(C(F)(F)F)c2cc(F)ccc2NC1=O | - | - | RT-K103N | - | <0.118 µM
CC1(C)Cc2cccc(OCCCN3CCCCC3)c2O1 | - | - | - | - | 118 µM
C#C[C@]1(COC(C)=O)O[C@@H](n2cnc3c(N)nc(F)nc32)C[C@@H]1O | pseudotyped | U373-CD4-CXCR4 | M184V | NL4-3 | 0.055 µM
O=C(c1ccc(Cl)cc1)C(O)NC(=S)Nc1ccccn1 | - | MT-4 | - | IIIB | 166 µM
CCN1C[C@H](C)N2C(=C(O)C3C(=O)N4Cc5ccc(F)cc5C(=O)NCCCCS(=O)(=O)N(C)C(=N4)C32)C1=O | - | MT-4 | - | LAII(IIIB) | 0.5 µM
CNc1ncnc2c1ncn2[C@H]1S[C@H](CO)C[C@@H]1N=[N+]=[N-] | - | MT-4 | - | - | >100 µM
Nn1c(S[C@@H]2O[C@H](CO)[C@@H](O)[C@H](O)[C@H]2O)nnc1-c1ccc(Cl)cc1 | - | MT-4 | RT-Y181C | NNRTI-resistant N119 | >100 µM
CCN1C[C@H](C)N2C(=C(O)C3C(=O)N4Cc5cc(F)c(F)cc5OCCCCCS(=O)(=O)N(C)C(=N4)C32)C1=O | - | MT-4 | - | LAII(IIIB) | 0.6 µM
CN(C)CCOc1c(Br)c(Br)c(Br)c2c1OC(C)(C)C2 | - | - | - | - | 110 µM
CCN1C[C@H](C)N2C(=C(O)C3C(=O)N4Cc5cc(Cl)c(F)cc5OCCCCCS(=O)(=O)N(C)C(=N4)C32)C1=O | - | MT-4 | - | LAII(IIIB) | 0.8 µM
C[C@@H]1O[C@](C#CC2CC2)(C(F)(F)F)c2cc(F)ccc2NC1=O | - | MT-2 | - | RF | <0.0052 µM
COc1cc([C@@H]2c3cc(O)c(OC)cc3C(=O)[C@@H](C)[C@H]2C)ccc1O | - | MT-4 | - | IIIB | 74.13 µg/mL
C#C[C@]1(COC(=O)C(CCCC)CCCCCC)O[C@@H](n2cnc3c(N)nc(F)nc32)C[C@@H]1O | pseudotyped | U373-CD4-CXCR4 | M184V | NL4-3 | 0.113 µM
COc1ccc(-c2nnc(SN3CCOCC3)n2N)cc1 | - | MT-4 | - | IIIB | >100 µM